Data on 4 molecules can be found in patent publication US20160264649A1 (published 2016).

Holding throughout (test): cell-based or functional assay
The target in test [1] is HIV-1 Env of isolate MG RM-A-001 (subtype A) (HIV-1).
The target of test [2] is HIV-1 Env of isolate MG RM-A-002 (subtype A) (HIV-1).
For test [3], the target named is HIV-1 Env of isolate MG RM-A-003 (subtype A) (HIV-1).
In test [4] the target is HIV-1 Env of isolate MG RM-A-004 (subtype A) (HIV-1).
Test [5] deals with HIV-1 Env of isolate MG RM-A-005 (subtype A) (HIV-1).
Test [6] addresses HIV-1 Env of isolate MG RM-A-006 (subtype A) (HIV-1).
Test [7] has as its target HIV-1 Env of isolate MG RM-A-007 (subtype A) (HIV-1).
Test [8] deals with HIV-1 Env of isolate MG RM-A-008 (subtype A) (HIV-1).
Test [9] has as its target HIV-1 Env of isolate MG RM-A-009 (subtype A) (HIV-1).
Test [10] concerns the target HIV-1 Env of isolate MG RM-A-010 (subtype A) (HIV-1).
The target of test [11] is HIV-1 Env of isolate MG RM-A-011 (subtype A) (HIV-1).
The target in test [12] is HIV-1 Env of isolate MG RM-A-012 (subtype A) (HIV-1).
For test [13], the target named is HIV-1 Env of isolate MG RM-A-013 (subtype A) (HIV-1).
Test [14] has as its target HIV-1 Env of isolate MG RM-A-014 (subtype A) (HIV-1).
Test [15] addresses HIV-1 Env of isolate MG RM-AG-001 (subtype AG) (HIV-1).
In test [16] the target is HIV-1 Env of isolate MG RM-AG-002 (subtype AG) (HIV-1).
In test [17] the target is HIV-1 Env of isolate MG RM-AG-003 (subtype AG) (HIV-1).
In test [18] the target is HIV-1 Env of isolate MG RM-AG-005 (subtype AG) (HIV-1).
The target of test [19] is HIV-1 Env of isolate MG RM-AG-006 (subtype AG) (HIV-1).
In test [20] the target is HIV-1 Env of isolate MG RM-AG-008 (subtype AG) (HIV-1).
Test [21] concerns the target HIV-1 Env of isolate MG RM-AG-009 (subtype AG) (HIV-1).
In test [22] the target is HIV-1 Env of isolate MG RM-AG-011 (subtype AG) (HIV-1).
In test [23] the target is HIV-1 Env of isolate MG RM-AG-012 (subtype AG) (HIV-1).
In test [24] the target is HIV-1 Env of isolate MG RM-AG-013 (subtype AG) (HIV-1).

B1: PGT-141 (4964_G22; 4993_K13) (antibody, V domains shown)
VH: QVQLVQSGPEVKKPGSSVKVSCKASGNTFSKYDVHWVRQATGQGLEWVGWMSHEGDKTESAQRFKGRVTFTRDTSASTAYMELRGLTSDDTAIYYCTRGSKHRLRDYVLYDDYGLINYQEWNDYLEFLDVWGHGTAVTVSS
VL: DTVVTQSPLSLPVTPGEAASMSCSSTQSLRHSNGANYLAWYQHKPGQSPRLLIRLGSQRASGVPDRFSGSGSGTHFTLKISRVEAEDAAIYYCMQGLNRPWTFGKGTKLEIK
Turning to B1, the “IC50, pseudovirus neutralization” value in test [1] was 0.209 µg/mL; in [2], 0.217 µg/mL; in [3] it was 7.96 µg/mL; in test [4], 0.007 µg/mL; in test [5] it was 11.1 µg/mL; in test [6], over 50 µg/mL. Besides, the “IC50, pseudovirus neutralization” value in test [7] was over 50 µg/mL; in test [8], over 50 µg/mL; in test [9], 0.029 µg/mL; in [10], 0.022 µg/mL; in test [11], over 50 µg/mL; in test [12], over 50 µg/mL. For the same molecule, the “IC50, pseudovirus neutralization” value in test [13] was 9.86 µg/mL; in test [14] it was 0.628 µg/mL; in test [15] it was 18 µg/mL; in test [16] it was 0.049 µg/mL; in test [17] it was over 50 µg/mL; in test [18], 0.497 µg/mL. Moreover, the “IC50, pseudovirus neutralization” value in test [19] is over 50 µg/mL; in [20], 19.2 µg/mL; in [21], over 50 µg/mL; in [22], 0.118 µg/mL; in [23], over 50 µg/mL; in test [24], over 50 µg/mL.

B2: PGT-144 (4970_K22) (antibody, V domains shown)
VH: QVQLVQSGAEVKKPGSSVKVSCKASGNTFRKYDVHWVRQATGQGLEWVGWMSHEGDKTESAQRFKGRVSFTRDNSASTAYIELRGLTSDDTAIYYCTGGSKHRLRDYVLYDDYGLINQQEWNDYLEFLDVWGHGTAVTVSS
VL: DTVVTQSPLSLSVTPGEAASMSCTSTQSLRHSNGANYLAWYQHKPGQSPRLLIRLGSQRASGVPDRFSGSGSGTHFTLKISRVEADDAAIYYCMQGLNRPWTFGKGTKLEIK
As for B2, the “IC50, pseudovirus neutralization” value was 1.11 µg/mL in test [1]; 0.085 µg/mL in test [2]; over 50 µg/mL in test [3]; 0.855 µg/mL in test [4]; 18.6 µg/mL in [5]; over 50 µg/mL in test [6]. The “IC50, pseudovirus neutralization” value in test [7] was over 50 µg/mL; in test [8], over 50 µg/mL; in test [9], 2.83 µg/mL; in test [10], 2.79 µg/mL; in test [11], over 50 µg/mL; in test [12], over 50 µg/mL. The “IC50, pseudovirus neutralization” value was over 50 µg/mL in test [13]; over 50 µg/mL in test [14]; over 50 µg/mL in test [15]; 7.78 µg/mL in test [16]; over 50 µg/mL in test [17]; over 50 µg/mL in test [18]. The “IC50, pseudovirus neutralization” value in test [19] is over 50 µg/mL; in [20] it was over 50 µg/mL; in test [21] it was over 50 µg/mL; in [22], 44.6 µg/mL; in test [23], over 50 µg/mL; in test [24], over 50 µg/mL.

B3: PGT-142 (4995_E20) (antibody, V domains shown)
VH: QVQLVQSGPEVKKPGSSVKVSCKASGNTFSKYDVHWVRQATGQGLEWVGWISHERDKTESAQRFKGRVTFTRDTSATTAYMELRGLTSDDTAIYYCTRGSKHRLRDYVLYDDYGLINYQEWNDYLEFLDVWGHGTAVTVSS
VL: DTVVTQSPLSLPVTPGEAASMSCSSTQSLRHSNGANYLAWYQHKPGQSPRLLIRLGSQRASGVPDRFSGSGSGTHFTLKISRVEAEDAAIYYCMQGLNRPWTFGKGTKLEIK
For the molecule B3, the “IC50, pseudovirus neutralization” value was 0.169 µg/mL in test [1]; 0.007 µg/mL in test [2]; 9.24 µg/mL in [3]; 0.002 µg/mL in test [4]; 9.7 µg/mL in test [5]; over 50 µg/mL in test [6]. Besides, the “IC50, pseudovirus neutralization” value in test [7] was over 50 µg/mL; in test [8], over 50 µg/mL; in test [9] it was 0.058 µg/mL; in test [10], 0.015 µg/mL; in test [11], over 50 µg/mL; in test [12], over 50 µg/mL. The “IC50, pseudovirus neutralization” value in test [13] is 3.73 µg/mL; in test [14] it was 0.367 µg/mL; in test [15] it was 12.4 µg/mL; in test [16], 0.044 µg/mL; in [17], over 50 µg/mL; in test [18], 0.383 µg/mL. The “IC50, pseudovirus neutralization” value in [19] is over 50 µg/mL; in [20], 12.1 µg/mL; in test [21], over 50 µg/mL; in test [22], 0.081 µg/mL; in test [23] it was over 50 µg/mL; in [24] it was 21.7 µg/mL.

B4: PGT-143 (4980_N08) (antibody, V domains shown)
VH: QVQLEQSGAEVKKPGSSVKVSCKASGNTFSKYDVHWVRQATGQGLEWVGWMSHEGDKTESAQRFKGRVTFTRDTSASTAYMELRGLTSDDTAIYYCTRGSKHRLRDYVLYDDYGLINYQEWNDYLEFLDVWGHGTAVTVSS
VL: DTVVTQSPLSLPVTPGEAASMSCTSTQSLRHSNGANYLAWYQHKPGQSPRLLIRLGSQRASGVPDRFSGSGSGTHFTLKISRVEPEDAAIYYCMQGLNRPWTFGKGTKLEIK
Consider B4, for which the “IC50, pseudovirus neutralization” value in test [1] is 0.274 µg/mL; in test [2] it was 0.016 µg/mL; in [3], 11.2 µg/mL; in [4], 0.007 µg/mL; in test [5], 7.48 µg/mL; in [6], over 50 µg/mL. Also, the “IC50, pseudovirus neutralization” value is over 50 µg/mL in test [7]; over 50 µg/mL in test [8]; 0.05 µg/mL in test [9]; 0.019 µg/mL in test [10]; over 50 µg/mL in test [11]; over 50 µg/mL in [12]. Moreover, the “IC50, pseudovirus neutralization” value in test [13] was 9.24 µg/mL; in test [14], 1.07 µg/mL; in [15], 18.9 µg/mL; in test [16], 0.076 µg/mL; in [17] it was over 50 µg/mL; in test [18], 1.11 µg/mL. The “IC50, pseudovirus neutralization” value was over 50 µg/mL in [19]; 34 µg/mL in [20]; over 50 µg/mL in [21]; 0.156 µg/mL in test [22]; over 50 µg/mL in test [23]; over 50 µg/mL in test [24].
